According to patent US7998969B2, “Non-nucleoside reverse transcriptase inhibitors” (Roche Palo Alto LLC, priority 2006, dated 2011):

Experiments:
[1] = molecular target: HIV-1 reverse transcriptase (HIV-RT enzyme) (Human immunodeficiency virus type 1 group M subtype B, UniProt P03366); assay: HIV-1 Reverse Transcriptase Assay Inhibitor IC50 Determination (RNA-dependent DNA polymerase activity, SPA); settings: read-out: HIVRT inhibition IC50, 30 min at 30°
Description: HIV-1 Reverse Transcriptase Assay Inhibitor IC50 Determination
RNA-dependent DNA polymerase activity was measured using a biotinylated primer oligonucleotide and tritiated dNTP substrate. Newly synthesized DNA was quantified by capturing the biotinylated primer molecules on streptavidin coated Scintillation Proximity Assay (SPA) beads (Amersham). The sequences of the polymerase assay substrate were: 18 nt DNA primer, 5′-Biotin/[…] -3′; 47 nt RNA template, 5′-[…] -3′. The biotinylated DNA primer was obtained from the Integrated DNA Technologies Inc. and the RNA template was synthesized by Dharmacon. The DNA polymerase assay (final volume 50 μl) contained 32 nM biotinylated DNA primer, 64 nM RNA substrate, dGTP, dCTP, dTTP (each at 5 μM), 103 nM [^3H]-dATP (specific activity=[…]), in 45 mM Tris-HCl, pH 8.0, 45 mM NaCl, 2.7 mM Mg(CH3COO)2, 0.045% Triton X-100 w/v, 0.9 mM EDTA. The reactions contained 5 μl of serial compound dilutions in 100% DMSO for IC50 determination and the final concentrations of DMSO were 10%. Reactions were initiated by the addition of […] of the HIV-RT enzyme (final concentrations of 1-3 nM). Protein concentrations were adjusted to provide linear product formation for at least 30 min of incubation. […] The beads were left to settle overnight and the SPA signals were counted in a 96-well top counter-NXT (Packard). […]

[2] = tested on: wild-type laboratory strain HIV-1HXB2; assay: Recombinant HIV-1 Antiviral Assay (MTT cell viability assay with MT-4 cells); format: cell-based; settings: read-out: Antiviral Activity IC50; MT-4 cells infected with HIV-1HXB2, MTT readout after 5 days
Description: Recombinant HIV-1 Antiviral Assay
The sensitivity of a wild-type laboratory strain HIV-1HXB2 to described compounds was determined by the 3-[4,5-dimethylthiazol-2yl]-2,5-diphenyltetrazolium bromide (MTT) cell viability assay with MT-4 cells (R. Pauwels et al., “Rapid and automated tetrazolium-based colorimetric assay for the detection of anti-HIV compounds,” J. Virological Methods 1988 20:309-321). Briefly, MT-4 cells were incubated with virus (MOI 0.0001) for 1 h at 37° C. and then resuspended at 7.5×10^5/mL in RPMI 1640 (with out phenol) (Gibco) with 10% FCS and antibiotics and plated out onto a 96 well plate (Corning Costar, USA). After 5 days incubation 20 μL of MTT (Sigma-Aldrich) (5 mg/mL in PBS) was added and the plates were incubated for 2 h before the addition of 170 μL of acidified IPA. The absorbance was measured at 540 nm and the TCID50 determined by Spearman-Karber method.

Cc1cc(C#N)cc(Cl)c1Oc1ccnc(NC2CCN(Cc3ccc(S(N)(=O)=O)cc3Cl)CC2)n1
IC50 [1]: 26.8 nM
IC50 [2]: 3.9 nM
